A mixed list of measured activities; the numbers were collected in NIAID ChemDB.

All rows: tests on isolated targets; species: Hepatitis C virus; target: NS5B polymerase; measure: IC50

Blank or dashed fields: not listed here. ICn: concentration for n% inhibition. Rows are shuffled and stem from different studies. Two numbers with a dash give a range or band.

compound,strain,result
O=C(N[C@H](C(=O)O)c1c[nH]c2ccc(O)cc12)c1ccc2c(c1)nc(-c1nc3ccccc3[nH]c1=O)n2C1CCCCC1,-,5–10 µM
COC(=O)c1cc(NC(=O)C2(NC(=O)c3ccc4c(c3)nc(-c3ccoc3)n4C3CCCCC3)CCCC2)cc(C(=O)O)c1,-,0.5–5 µM
COc1cc(C(=O)N2[C@@H](c3ncc(C)s3)[C@@H](c3cnccn3)C[C@@]2(Cn2cccn2)C(=O)O)ccc1C(C)(C)C,genotype 1b,<0.1 µM
COC(=O)[C@H](Cc1c[nH]c2ccc(OCC(=O)O)cc12)NC(=O)c1ccc2c(c1)nc(-c1ccccn1)n2C1CCCCC1,-,<1 µM
O=C(O)/C=C/c1ccc(NC(=O)[C@H](NC(=O)c2ccc3c(c2)nc(-c2ccoc2)n3C2CCCCC2)c2ccccc2)cc1,-,0.5–5 µM
O=C(NC(C(=O)O)C(=O)O)c1ccc2c(c1)nc(-c1ccccn1)n2C1CCCCC1,-,1–5 µM
COc1cc(C(=O)N2[C@@H](c3nccs3)[C@@H](c3cnccn3)C[C@@]2(Cn2cccn2)C(=O)O)ccc1C(C)(C)C,genotype 1b,<0.1 µM
Cc1cc(-c2nc3cc(C(=O)N[C@H](C(=O)O)c4c[nH]c5ccc(O)cc45)ccc3n2C2CCCCC2)on1,-,<1 µM
CCC[C@]1(CC(=O)O)OCCc2c1[nH]c1c(C)ccc(C#N)c21,207-248 genotype 1A,0.5 µM
CC(C)C(=O)c1nc(C(=O)N[C@H]2CCCC[C@@H]2OCc2ccccc2)n(CC(=O)N[C@H]2CCCC[C@@H]2OCc2ccccc2)n1,-,0.1–1 µM
O=C(NC1(C(=O)Nc2ccc(-c3ccc(O)cc3)cc2)CCCC1)c1ccc2c(c1)nc(-c1ccoc1)n2C1CCCCC1,-,0.5–5 µM
Nc1nc(C[C@H](Cc2ccc(OCC(=O)O)cc2)NC(=O)c2ccc3c(c2)nc(-c2ccoc2)n3C2CCCCC2)cs1,-,<1 µM
O=C(O)/C=C/c1ccc(NC(=O)C2(NC(=O)c3ccc4c(c3)nc(-c3ccoc3)n4C3CCCCC3)CC2)cc1,-,<0.5 µM
COc1cc(C(=O)N2[C@@H](c3nccs3)[C@@H](c3cnccn3)C[C@@]2(Cc2cscn2)C(=O)O)ccc1C(C)(C)C,genotype 1b,<0.1 µM
O=C(Cn1nc(C(=O)NOCc2cccc3ccccc23)nc1C(=O)N[C@H]1CCCC[C@@H]1OCc1ccccc1)N[C@H]1CCCC[C@@H]1OCc1ccccc1,-,0.1–1 µM
COc1cc(C(=O)N2[C@@H](c3nccs3)[C@@H](c3cnccn3)C[C@@]2(CCS(C)(=O)=O)C(=O)O)ccc1C(C)(C)C,genotype 1b,>0.5 µM
O=C(O)COc1ccc2[nH]cc(C[C@H](NC(=O)c3ccc4c(c3)nc(-c3ccc(C(=O)NCCNC(=S)Nc5ccc(-c6c7ccc(=O)cc-7oc7cc(O)ccc67)cc5C(=O)O)cc3)n4C3CCCCC3)C(=O)O)c2c1,-,<1 µM
Cc1ccc(OCc2ccccc2)c(NC(=O)c2cc(C(=O)O)nn2CC(=O)N[C@H]2CCCC[C@@H]2OCc2ccccc2)c1,-,0.041 µM
O=C(NC1(C(=O)Nc2ccc3[nH]c(C(=O)O)cc3c2)CCCC1)c1ccc2c(c1)nc(-c1ccoc1)n2C1CCCCC1,-,<0.5 µM
CN(C(=O)Cc1ccc2c(c1)nc(-c1ccoc1)n2C1CCCCC1)[C@H](Cc1ccc(O)cc1)C(=O)O,-,10–25 µM
COc1cc(C(=O)N2[C@@H](c3nccs3)[C@@H](c3cnccn3)C[C@@]2(Cc2nccs2)C(=O)O)ccc1C(C)(C)C,Genotype 1A,<0.15 µM
O=C(Cn1nc(C(=O)O)nc1C(=O)N[C@H]1CCCC[C@@H]1OCC1CCCCC1)N[C@H]1CCCC[C@@H]1OCc1ccccc1,-,0.1–1 µM
Cc1nc2cc(C(=O)N[C@@H](Cc3c[nH]c4cc(O)ccc34)C(=O)O)ccc2n1C1CCCCC1,-,10–25 µM
Cn1c(C(=O)O)cc2cc(NC(=O)C3(NC(=O)c4ccc5c(c4)nc(-c4ccoc4)n5C4CCCCC4)CCNCC3)ccc21,-,<0.5 µM
COc1cc(C(=O)N2[C@@H](c3nccs3)[C@@H](c3cnccn3)C[C@@]2(Cc2ccccn2)C(=O)O)ccc1C(C)(C)C,genotype 1b,0.1–0.5 µM
O=C(O)/C=C/c1ccc(NC(=O)C2(NC(=O)c3ccc4c(c3)nc(-c3ccco3)n4C3CCCC3)CCCC2)cc1,-,0.5–5 µM
O=C(O)c1ccc(-c2nc3cc(C(=O)N[C@H](C(=O)O)c4c[nH]c5ccc(O)cc45)ccc3n2C2CCCCC2)cc1,-,1–5 µM
O=C(Cn1nc(C(=O)N2CCCc3ccccc32)cc1C(=O)N[C@H]1CCCC[C@@H]1OCc1ccccc1)N[C@H]1CCCC[C@@H]1OCc1ccccc1,-,0.1–1 µM

For reference, 4 entries again:

COc1cc(C(=O)N2[C@@H](c3nccs3)[C@@H](c3cnccn3)C[C@@]2(Cc2ccccn2)C(=O)O)ccc1C(C)(C)C ; strain: genotype 1b ; result: 0.1–0.5 µM
CC(C)C(=O)c1nc(C(=O)N[C@H]2CCCC[C@@H]2OCc2ccccc2)n(CC(=O)N[C@H]2CCCC[C@@H]2OCc2ccccc2)n1 ; result: 0.1–1 µM
O=C(Cn1nc(C(=O)N2CCCc3ccccc32)cc1C(=O)N[C@H]1CCCC[C@@H]1OCc1ccccc1)N[C@H]1CCCC[C@@H]1OCc1ccccc1 ; result: 0.1–1 µM
O=C(NC1(C(=O)Nc2ccc(-c3ccc(O)cc3)cc2)CCCC1)c1ccc2c(c1)nc(-c1ccoc1)n2C1CCCCC1 ; result: 0.5–5 µM